Some compounds may have been tested in ways that are not shown here.
Key:
[1] = tested on: Yarrowia tropicalis ATCC#48138; assay: Microbial testing in biodiesel fuel, plate count; format: cell-based; conditions: additive 1500 ppm, no biocide, Week 4
[2] = tested on: Pseudomonas aeruginosa ATCC#33988; assay: Microbial testing in biodiesel fuel, plate count; format: cell-based; conditions: additive 500 ppm, no biocide, Week 3

OCCN(CCO)CCO
Yeast (Y. tropcalis) count [1]: 1.30E+02 Yeast/ml
Bacteria (Ps. aeruginosa) count [2]: 2.40E+06 Bact/ml
